Measured values from several laboratories, pooled; numbers as filed in NIAID ChemDB.

Shared fields: tests in culture; organism: Cryptosporidium parvum; measure: EC50

ECn: concentration that inhibits the pathogen or its effect by n%. Blank or dashed fields: not listed here. Two numbers with a dash give a range or band. Neighbouring rows are from separate reports.

compound	cells	result
O=C1/C(=C/c2ccccc2)Oc2cc(O)ccc21		>50 µM
CCCCCCSc1c2ccccc2nc2ccccc12		>50 µg/mL
COc1cc(/C=C/C=C\c2ccccc2)oc(=O)c1C		>50 µM
Cn1cc2c(n1)C(=O)c1cc3ccccc3c(O)c1C2=O		>100 µM
CC[C@H]1OC(=O)[C@H](C)[C@@H](O[C@H]2C[C@@](C)(OC)[C@@H](O)[C@H](C)O2)[C@H](C)[C@@H](O[C@@H]2O[C@H](C)C[C@H](N(C)C)[C@H]2O)[C@](C)(O)C[C@@H](C)CN(C)[C@H](C)[C@@H](O)[C@]1(C)O	A549	>8 µg/mL
O=C1c2cn[nH]c2C(=O)c2c(O)ccc(O)c21		10–25 µM
O=[N+]([O-])c1ccc(Sc2c3ccccc3nc3cc(Cl)ccc23)cc1		>50 µg/mL
Cn1ncc2c1C(=O)c1cccc(Br)c1C2=O		25–50 µM
CCSc1c2ccccc2nc2ccccc12		>10 µg/mL
O=C1COc2cc(O)ccc21		>50 µM
Nc1ccc2c(Sc3ccc([N+](=O)[O-])cc3)c3ccccc3nc2c1		>10 µg/mL
Cc1ccc2c(c1)C(=O)c1c(cnn1C)C2=O		25–50 µM
O=C1/C(=C/c2cccc(O)c2)Oc2cc(O)ccc21		10–25 µM
CCn1nc(C)c2c1C(=O)c1ccccc1C2=O		>100 µM
COc1cc(/C=C/C=C\c2ccccc2OC)oc(=O)c1		>50 µM
Cc1cc(O)c2c(c1Cl)C(=O)c1cn[nH]c1C2=O		>100 µM
COc1ccc(/C=C2\Oc3cc(O)ccc3C2=O)cc1OC		<10 µM
Nc1ccc(CSc2c3ccccc3nc3cc(Cl)ccc23)cc1		>50 µg/mL

2 of the rows above, restated:

compound,cells,result
O=C1/C(=C/c2cccc(O)c2)Oc2cc(O)ccc21,,10–25 µM
CCSc1c2ccccc2nc2ccccc12,,>10 µg/mL